A mixed list of measured activities; the numbers were collected in NIAID ChemDB.

Common to all: tests in culture; organism: Candida albicans; read-out: zone

Rows are shuffled and stem from different studies.

compound | strain | tested at | result
O=c1[nH]c(=O)c2nc(-c3ccccn3)c(-c3ccccn3)nc2[nH]1 |  | 250 mg/mL | 20 mm
Brc1ccccc1-c1nnc(CN2CCC(n3nc4ccccc4n3)CC2)o1 |  | 300 µg/mL | 2.5 mm
COc1ccc(/C=C/c2nc3ccc(Cl)cc3[nH]2)c(OC)c1OC |  | 25 µg/mL | 12.46 mm
Clc1ccc(C2=NN(c3ccccc3)C(c3cn(-c4ccccc4)nc3-c3ccc(Br)cc3)C2)c(Cl)c1 | MTCC 227 | 500 µg/mL | 1 mm
Brc1ccc2c(c1)Sc1cccnc1N2CCCCCCN1c2ccc(Br)cc2Sc2cccnc21 | MTCC 227 | 100 µg/mL | 11 mm
CCOC(=O)Cc1nnc2n1-c1nc3ccccc3nc1NN2 | ATCC 2091 | 1000 µg/mL | 25 mm
Clc1ccc2nc(/C=C/c3ccccc3)[nH]c2c1 |  | 25 µg/mL | 11.84 mm
CCn1c(C(F)(F)F)nc2cc([N+](=O)[O-])ccc21 | MTCC 227 | 500 µg/mL | 700 mm
Cc1nc2ccccc2n(CC(=O)NN2C(=O)CSC2c2ccc(O)cc2)c1=O |  | 100 µg/mL | 22 mm
Clc1ccc2c(c1)Sc1cccnc1N2CCCCCCN1c2ccc(Cl)cc2Sc2cccnc21 | MTCC 227 | 100 µg/mL | 12 mm
O=[N+]([O-])c1ccc(-c2nnc(CN3CCC(n4nc5ccccc5n4)CC3)o2)cc1Cl |  | 300 µg/mL | 2.87 mm
S=c1nc2c(n[nH]1)Nc1ccccc1N2 | ATCC 2091 | 1000 µg/mL | 24 mm
O=c1ncc2nc(-c3ccccn3)c(-c3ccccn3)nc2[nH]1 |  | 250 mg/mL | 23 mm
O=[N+]([O-])c1ccc2c(c1)nc(C(F)(F)C(F)(F)F)n2CCCCCl | MTCC 227 | 500 µg/mL | 700 mm
Fc1cccc(-c2nnc(CN3CCC(n4nc5ccccc5n4)CC3)o2)c1F |  | 900 µg/mL | 9.86 mm
O=[N+]([O-])c1ccc2nc(C(F)(F)F)n(CCCCCl)c2c1 | MTCC 227 | 500 µg/mL | 600 mm
Cc1ccc(O)c(O)c1O |  | 50 µg/mL | 12 mm
O=c1[nH]cnc2nc(-c3ccccn3)c(-c3ccccn3)nc12 |  | 500 mg/mL | 30 mm
Cc1nc2ccccc2n(CC(=O)NN2C(=O)CSC2c2ccc(N(C)C)cc2)c1=O |  | 50 µg/mL | 14 mm
Clc1nccc2nc(-c3ccccn3)c(-c3ccccn3)nc12 |  | 250 mg/mL | 35 mm
Clc1ccc2c(c1)Sc1cccnc1N2CCCCN1c2ccc(Cl)cc2Sc2cccnc21 | MTCC 227 | 100 µg/mL | 11 mm
Oc1ccc(/C=C/c2nc3ccc(Cl)cc3[nH]2)cc1 |  | 25 µg/mL | 10.12 mm
COc1ccc(C2SCC(=O)N2NC(=O)Cn2c(=O)c(C)nc3ccccc32)cc1O |  | 100 µg/mL | 20 mm
COc1ccc(C2=NOC(c3cc4c([nH]3)CC(C)(C)CC4=O)C2)cc1 | ATCC 2091 | 1000 µg/mL | 23 mm
Cc1nc2ccccc2n(CC(=O)NN2C(=O)CSC2c2ccc(C(F)(F)F)cc2)c1=O |  | 50 µg/mL | 14 mm
Clc1ccc(-c2nn(-c3ccccc3)cc2C2CC(c3ccc(-c4ccccc4)cc3)=NN2c2ccccc2)cc1 | MTCC 227 | 1000 µg/mL | 5 mm
C(=N\Nc1nnc2c(n1)Nc1ccccc1C2)/c1ccccc1 | ATCC 2091 | 1000 µg/mL | 24 mm
CCOC(=O)Cn1c(C(F)(F)F)nc2cc([N+](=O)[O-])ccc21 | MTCC 227 | 500 µg/mL | 400 mm
COc1ccc(-c2nn(-c3ccccc3)cc2C2CC(c3ccc(-c4ccccc4)cc3)=NN2c2ccccc2)cc1 | MTCC 227 | 1000 µg/mL | 0 mm
CC(=O)Nc1ccc(F)cc1Sc1ncccc1[N+](=O)[O-] | MTCC 227 | 100 µg/mL | 14 mm
O=[N+]([O-])c1ccc2c(c1)nc(C(F)(F)F)n2CCCCCl | MTCC 227 | 500 µg/mL | 500 mm
COc1ccc(-c2nn(-c3ccccc3)cc2C2CC(c3ccc(SC)cc3)=NN2c2ccccc2)cc1 | MTCC 227 | 500 µg/mL | 0 mm
Cc1nc2ccccc2n(CC(=O)NN2C(=O)CSC2c2ccccc2F)c1=O |  | 100 µg/mL | 14 mm
c1ccc(-c2nnc(CN3CCC(n4nc5ccccc5n4)CC3)o2)cc1 |  | 600 µg/mL | 6.05 mm
COc1ccc(-c2nn(-c3ccccc3)cc2C2CC(c3ccc(Cl)cc3Cl)=NN2c2ccccc2)cc1 | MTCC 227 | 500 µg/mL | 0 mm

For reference, 5 entries again:

compound | strain | tested at | result
Cc1nc2ccccc2n(CC(=O)NN2C(=O)CSC2c2ccc(N(C)C)cc2)c1=O |  | 50 µg/mL | 14 mm
O=c1ncc2nc(-c3ccccn3)c(-c3ccccn3)nc2[nH]1 |  | 250 mg/mL | 23 mm
COc1ccc(C2=NOC(c3cc4c([nH]3)CC(C)(C)CC4=O)C2)cc1 | ATCC 2091 | 1000 µg/mL | 23 mm
S=c1nc2c(n[nH]1)Nc1ccccc1N2 | ATCC 2091 | 1000 µg/mL | 24 mm
C(=N\Nc1nnc2c(n1)Nc1ccccc1C2)/c1ccccc1 | ATCC 2091 | 1000 µg/mL | 24 mm

Zones are inhibition diameters on agar. Blank or dashed fields: not listed here.